Experimental data as given in article PMC11466185, “Mechanisms and efficacy of small molecule latency-promoting agents to inhibit HIV reactivation ex vivo” (JCI Insight, 2024).
“And” between values parts separate entries of the source, which are not always exact repeats. Equal values may be shown once. Read-outs that look alike come from different tables or passages of the source.

Tested on: PBMCs
Type: cell-based, human
Protocol: Next, we evaluated the ability of the candidate LPAs to sustain the inhibitory effects during a prolonged ex vivo culture. To this end, PBMCs were cultured in the presence of individual drugs in DMSO or in DMSO alone as control, activated (anti-CD3/CD28), and harvested after 6 days. […] Ruxolitinib and triptolide caused sustained reductions in initiated HIV transcripts (medians relative to activated DMSO: 27%, P = NS and 1%, P = 0.03, respectively; Figure 4A and Table 3). […] However, we decided to test the drug on day 6 because extra cells were available from some study participants.
For quantification of cell-associated HIV transcripts, PBMCs were harvested either after 24 hours or after 6 days. The cell viabilities were measured by trypan blue staining; then the cells were pelleted by centrifuging at 300g for 6 minutes and stored at –80°C. For quantification of virion-associated HIV RNA, cell culture supernatant was collected from 6 × 10^6 PBMCs that were treated and activated for 6 days as described above. Residual cells and cellular debris were subsequently removed from the supernatant by differential centrifugation (300g for 6 minutes, then 20,000g for 10 minutes), and the supernatant was stored at –80°C.
Figure S4. […] A) After six days, the viability was measured by trypan blue staining and then normalized to the levels of the activated DMSO (% of activated DMSO). […]

| Structure (SMILES) | Cell viability (DMSO αCD3/28 = 100) (human, 6 days, 4 μM) | Cell viability (DMSO αCD3/28 = 100) (5μM, 6 days after αCD3/28 activation, each row one participant) |
| --- | --- | --- |
| N#CC[C@H](C1CCCC1)n1cc(-c2ncnc3[nH]ccc23)cn1 [ruxolitinib] | 104.7 |  |
| O=c1c(O)c(-c2ccc(O)c(O)c2)oc2cc(O)cc(O)c12 [quercetin] |  | 105.41 and 105.3 and 104.6 |
